Assay in all cases: pseudovirus neutralization IC50; higher = weaker neutralization
The target in assay [1] is SARS-CoV-2 Omicron BA.1 spike pseudovirus. The protocol:
(§1)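 Single-round VSV luciferase pseudovirus mixed with antibody dilutions for 1 h and put on Huh-7 cells for about a day; IC50 from the dose curve.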

The target in assay [2] is SARS-CoV-2 Omicron BA.2 spike pseudovirus. The protocol: as §1
The target in assay [3] is SARS-CoV-2 Omicron BA.2.75 spike pseudovirus. On the procedure: as §1
In assay [4] the target is SARS-CoV-2 Omicron BA.5 spike pseudovirus. The protocol:
as §1

Assay [5] deals with SARS-CoV-2 Omicron BQ.1.1 spike pseudovirus. On the procedure:
as §1

Assay [6] concerns the target SARS-CoV-2 Omicron XBB spike pseudovirus. On the procedure: as §1
The target in assay [7] is SARS-CoV-2 early D614G spike pseudovirus. On the procedure: as §1

Human monoclonal antibodies against the spike receptor-binding domain (heavy:light variable regions). IC50 against pseudoviruses bearing the spike of naturally observed variants; lower = stronger; >10 µg/ml means not reached at the top dose. No active / inactive call. The stated detection limit is 0.0005 µg/ml; values near or below 0.001 µg/ml lie at the floor of the assay.

B1: BD55-6261 (protein)
chain 1: QLRLQESGPGLVKPSETLSLTCTVSDDSISSSNYYWGWVRQPPGKGLEWIGTIYYTGVTYYSPSLKSRVTMSVDTSRNQFSLTLTSVTAADTALYYCARHLGGDREERLTSSWYDSWTGGHFDLWGRGSRVTVSS
chain 2: QSVLTQPPSVSGAPGQRVTISCTGSSSNIGASYDVHWYQQLPGTAPKLLIYGNNNRPSGVPDRFSGSKSGTSASLAITRLQAEDEADYYCQSYDSNMSGWVFGGGTKLTVL
For B1, the “pseudovirus neutralization IC50” value in assay [1] is 0.806 µg/mL; in assay [2], over 10 µg/mL; in assay [3] it was over 10 µg/mL; in assay [4] it was over 10 µg/mL; in assay [5] it was over 10 µg/mL; in assay [6], over 10 µg/mL. For the same molecule, the “pseudovirus neutralization IC50” value in assay [7] turned out to be 0.02 µg/mL.

B2: BD55-6256 (protein)
chain 1: QITLKESGPTLVKPTQTLTLTCTFSGFSLSTTGVGVGWIRQPPGKALEWLALLYWDDDKRYSPSLKSRLTVTKDTSKNQVVLTMTNMDPVDTATYYCAHTSRLNYFGSGSYLDYWGQGTLVTVSS
chain 2: EIVLTQSPDTLSLSPGERATLSCRASQSVSIFLAWYQQKPGQAPRLLFYDASTRATGIPDRFSVSGSGTDFTLTISRLEPEDFAVYYCQHYGSSPPGTFGQGTRLETK
In the case of B2, the “pseudovirus neutralization IC50” value in assay [1], in assay [2], in assay [3], in assay [4], in assay [5] and in assay [6] was over 10 µg/mL in each case. Besides, the “pseudovirus neutralization IC50” value in assay [7] was over 10 µg/mL.

B3: BD55-6264 (protein)
chain 1: QVQLVQSGAEVKKPGASVKVSCKASGYTFTAYDINWMRLATGQGLEWMGWMNPNTGDTGYAHKFQGRVSMTRDTSSSTAYMELSSLRSEDTAVYYCAIGQRRYYYGLGSQWGQGTQVTVSS
chain 2: DIQMTQSPSSLPASVGDRVTITCRASQSISTYLNWYQRKPGKAPKLLIYDASSVESGVPSRFSGSGTRTDFTLTITSLQPEDFATYYCQQSYSFPYNFGQGTKLEI
Consider B3, for which the “pseudovirus neutralization IC50” value in assay [1], in assay [2], in assay [3], in assay [4], in assay [5] and in assay [6] was over 10 µg/mL throughout. Besides, the “pseudovirus neutralization IC50” value in assay [7] was over 10 µg/mL.

B4: BD55-6258 (protein)
chain 1: QVHLVESGGGVVQPGRSLRLSCAASGFTFSTYGIHWVRQAPGKGLEWVALIWNDGSKTYYPDSVKGRFTISRDNSKNTVSLQMNSLRDEDTAVYYCARDSLCSGGICYFDYNWFDVWGQGTLVTVSS
chain 2: EIVLTQSPATLSLSPGERVTLSCKASQSVSRHLAWYQQKPGQPPRLLIYDASNRATGVPARFSGSGSGTDFTLTISSLEPEDFAVYYCQQRYTWPPAYTFGQGTKLQIK
Consider B4, for which the “pseudovirus neutralization IC50” value in assay [1], in assay [2], in assay [3], in assay [4], in assay [5] and in assay [6] was over 10 µg/mL each time. Further, the “pseudovirus neutralization IC50” value in assay [7] is over 10 µg/mL.

B5: BD55-6255 (protein)
chain 1: QVTLKESGPVLVKPTETLTLTCTVSGFSLSNAKMGVSWIRQPPGKALEWLVNTFSDDEFSYNPSLTSRLTVSRDTSKSQVVLTMTNVDPVDTATYYCARIVGYYYYYMDVWGKGTAVTVSS
chain 2: DIQMTQSPSSLSASVGDRVTLTCRASQNIGNYLNWYQHIPGKAPKLLIYAASSLQSGVPSRFSGSGSGTDFTLTISSLQPEDFSTYYCQQSYTTPTWTFGPGTKVEVK
On to B5, for which the “pseudovirus neutralization IC50” value in assay [1], in assay [2], in assay [3], in assay [4], in assay [5] and in assay [6] was over 10 µg/mL each time. In addition, the “pseudovirus neutralization IC50” value in assay [7] was over 10 µg/mL.

B6: BD55-6262 (protein)
chain 1: QVQLVQSGAEVKKPGSSVKVSCKASGGTFINYPISWVRQAPGQGLECMGRIIPLLGTAHYAQKFQGRVTITADKSTNTAYMDLSSLKSEDTAMYYCARGRVDYSGYDFWGVEDFDSWGQGTLVTVSS
chain 2: EIVMTQSPATLSVSPGERATLSCRASQSVSSNLAWYQQKHGQAPRLLIYDASTRATGIPARFSGSGSGTEFTLTISSLQSEDFAVYYCQQYNDWPPAFGGGAKVEIK
B6: the “pseudovirus neutralization IC50” value in assay [1], in assay [2], in assay [3], in assay [4], in assay [5] and in assay [6] was over 10 µg/mL each time. The “pseudovirus neutralization IC50” value in assay [7] was 0.0358 µg/mL.

The values are drawn from the supplement of paper PMC9931576.
